Test results taken from article PMC9654784, “Targeting SARS-CoV-2 nsp13 Helicase and Assessment of Druggability Pockets: Identification of Two Potent Inhibitors by a Multi-Site In Silico Drug Repurposing Approach” (Molecules, 2022).

What was measured:
SARS-CoV-2 nsp13 [1] = biological target: T1, SARS-CoV-2 nsp13 (Severe acute respiratory syndrome coronavirus 2, UniProt P0DTD1); experiment: SARS-CoV-2 nsp13 unwinding-associated activity; assay type: biochemical; conditions: concentration required to inhibit nsp13-associated unwinding activity by 50%; 1 nM nsp13, 1 mM ATP, 750 nM DNA substrate
Experimental: (§1) The SARS-CoV-2 nsp13 his-tagged was expressed in E. coli BL21 Rosetta 2 cells from a pNIC-ZB (addgene #159614). A purification protocol was adopted from Newman et al.. Terrific Broth media was used to culture the cells at 37 °C and at 200 rpm until 1.6 OD600. Then, protein expression was induced with […] for 16 h at 18 °C, at 200 rpm, and then pelleted and resuspended in lysis buffer (50 mM HEPES pH 7.5, 500 mM NaCl, 5% Glycerol, 10 mM Imidazole, 0.5 mM TCEP, Merck Protease inhibitor cocktail III, 1:500). After sonication and clarification at 15,000× g for 30 min, the crude extract was used for a batch binding of 40 min in a three-dimensional rotating mixer with 5 mL of Ni-sepharose (cytiva) under orbital. […] The elution fraction was analyzed for purity by SDS page, and clean fractions were pooled and dialyzed against a desalting buffer containing 25 mM HEPES pH 7.5, 250 mM NaCl, 20% Glycerol, and 0.25 mM TCEP. […]
The SARS-CoV-2 nsp13 unwinding-associated activity was measured in black 384-well plates (PerkinElmer). […] Compounds SSYA10-001 and Licoflavone C were used as positive controls of inhibition; the reaction lasted for 15 min at 37 °C, and then the products were measured with Victor Nivo (Perkin) at 530/580 nm.

SARS-CoV-2 nsp13 [2] = biological target: T1, SARS-CoV-2 nsp13; experiment: SARS-CoV-2 nsp13 ATPase (NTPase)-associated activity; assay type: biochemical; conditions: concentration required to inhibit nsp13-associated ATPase activity by 50%; 25 nM nsp13, 400 µM ATP
Experimental: as §1, with “orbital. Then, the tubes were centrifuged at 700× g at 4 °C for 5 min, and the resin was loaded onto a gravity flow column (econo column BioRad) connected to a BioLogic LP (BioRad).” for “orbital.”
The SARS-CoV-2 nsp13 helicase-associated activity was measured in a transparent 96-well plate (PerkinElmer), as described in [34]. […] The products were measured with Victor Nivo (Perkin) at 650 nm.

Q: Which IC50 (SARS-CoV-2 nsp13 [1]) does the source give for “nicotinamide adenine dinucleotide [NADH]” here?
A: Its IC50 is > 30 µM.

Q: What about the IC50 (SARS-CoV-2 nsp13 [2]) of the same substance?
A: Its IC50 is > 30 µM.
